Compound potency records, mixed from different reports. Data source: NIAID ChemDB in PubChem.

Shared fields: whole-cell or culture tests; organism: Mycobacterium tuberculosis

MIC50, MIC90 and the like: level of inhibition, or share of isolates inhibited.

SMILES,strain,method,measure,tested at,result
CCCCCN1C(=O)c2ccnnc2Oc2cc(C)ccc21,H37Rv,BACTEC,EC50,,>12.5 µg/mL
COc1ccc(NC(=O)/C(CC2=Nc3ccc([N+](=O)[O-])cc3NC2O)=N/NC(=O)C[N+](C)(C)C)c(OC)c1.[Cl-],H37Rv,BACTEC,MIC bound,,>12.5 µg/mL
CO[C@H]1/C=C/O[C@@]2(C)Oc3c(C)c(O)c4c(O)c(c5c(c4c3C2=O)NC2(CCN(CC(C)C)CC2)N=5)=NC(=O)/C(C)=C\C=C\[C@H](C)[C@H](O)[C@@H](C)[C@@H](O)[C@@H](C)[C@H](OC(C)=O)[C@@H]1C,2230 (rifampicin-resistant),,MIC,,>2 µg/mL
CC1(C)CC[C@]2(C(=O)O)CC[C@]3(C)C(=CCC4[C@@]5(C)CCC(=O)C(C)(C)C5CC[C@]43C)C2C1,H37Rv,,MIC,,16 µg/mL
CCCCCCCCc1ccc2c(c1)C(=O)c1nc3ccncc3c(=O)n1-2,TN1618RFLF:P (MDR),,MIC,,<0.015 µg/mL
O=[N+]([O-])c1c(Cl)sc(Cl)c1[N+](=O)[O-],H37Rv,BACTEC,inhibition,6.25 µg/mL,27%
CN(C/C=C/c1ccc(C(F)(F)F)cc1)c1ccc(OC[C@@]2(C)Cn3cc([N+](=O)[O-])nc3O2)cc1,H37Rv,,MIC,,0.024 µg/mL
CC(C)(C)OC(=O)N1CCN(c2cc3nc4n(c(=O)c3cc2F)-c2ccc(I)cc2C4=O)CC1,H37Rv,,MIC,,>4 µg/mL
CCOC(=O)Nc1cc(N)c2c(n1)OCC(c1cccc(OC)c1)=N2,H37Rv,,EC50,,>12.5 µg/mL
CCCCCC/C=C/c1ccc2nc3n(c(=O)c2c1)-c1ccc(Cl)cc1C3=O,H37Rv,,MIC,,1 µg/mL
COc1ccc2c(C)cc(N/N=C/c3ccnc4ccccc34)nc2c1,H37Rv,BACTEC,MIC,,≥12.5 µg/mL
CC(=O)O[C@H]1CC2C(C)(C)CCC[C@]2(C)C2CCC3[C@@]4(C)CC[C@H](C(C)(C)O)C4CC[C@@]3(C)[C@@]21C,H37Rv,,MIC,,>128 µM
CCOC(=O)Nc1cc(N)c2[nH]cnc2n1,H37Rv,,EC50,,>12.5 µg/mL
CO[C@H]1/C=C/O[C@@]2(C)Oc3c(C)c(O)c4c(O)c(c(N5CCN(Cc6c(C)cc(C)cc6C)CC5)c(O)c4c3C2=O)NC(=O)/C(C)=C\C=C\[C@H](C)[C@H](O)[C@@H](C)[C@@H](O)[C@@H](C)[C@H](OC(C)=O)[C@@H]1C,H37Rv,,MBC,,0.5 µg/mL
COC(c1ccc2c(c1)C(=O)c1nc3ccncc3c(=O)n1-2)C(C)C,H37Rv,,MIC,,0.06 µg/mL
CC(C)Cn1c(-c2ccccc2)cs/c1=N\NC(=O)COc1cnccn1,H37Rv,,MIC,,18 µg/mL
NCC[C@H](O)C(=O)N[C@@H]1C[C@H](N)[C@@H](O[C@H]2O[C@H](CN)[C@@H](O)[C@H](O)[C@H]2O)[C@H](O)[C@H]1O[C@H]1O[C@H](CO)[C@@H](O)[C@H](N)[C@H]1O,6R,,MIC,,2.5 µg/mL
CC1(C)CC[C@]2(C(=O)O)CC[C@]3(C)C(=CCC4[C@@]5(C)CC[C@@H](O)C(C)(C)C5CC[C@]43C)C2C1,H37Rv,,MIC,,16 µg/mL
CC(=O)NC[C@H]1CN(c2ccc(N3CCOCC3)c(F)c2)C(=O)O1,6S,,MIC,,0.5 µg/mL
O=C(NC(CCS(=O)(=O)n1ccnc1)C(=O)OCc1ccccc1)OCc1ccccc1,H37Rv,BACTEC,MIC bound,,>12.5 µg/mL
COc1ccc(CCc2cc(OC)c3ccccc3n2)cc1OC,MT10,,MIC,,>100 µg/mL
COc1c(N2CCNC(C)C2)c(F)cc2c(=O)c(C(=O)O)cn(C3CC3)c12,23 strains (rifampin- isoniazid-susceptible),,MIC90,,0.2 µg/mL
C[C@]1(COc2ccc(N3CCC(CCOCc4ccc(Cl)cc4)CC3)cc2)Cn2cc([N+](=O)[O-])nc2O1,H37Rv,,MIC,,0.024 µg/mL
CCOC(=O)c1ccc(NC(=O)c2cnccn2)cc1,H37Rv,BACTEC,MIC bound,,>12.5 µg/mL
COc1ccc(C2Oc3cc(F)ccc3C(=O)C2O)cc1,,,inhibition,12.5 µg/mL,50%
CO/C(=N\N=C\c1cccc(F)c1)c1ccncc1,6 PI,,MIC,,>20 µg/mL
CCOc1ccc(-n2c(-c3ccc(F)cc3)cs/c2=N\NC(=O)COc2cnccn2)cc1,H37Rv,,MIC,,22 µg/mL
C/C(=N\NC(=O)c1ccncc1)c1ccc(Cl)cc1Cl,16PI,,MIC,,>20 µg/mL
CC1CN(c2cc3nc4n(c(=O)c3cc2F)-c2ccc(C(=O)O)cc2C4=O)CCN1,H37Rv,,MIC,,>8 µg/mL
Cn1c(C(O)(Cc2ccccn2)Cc2ccccn2)cc2ccccc21,H37Rv,,inhibition,6.25 µg/mL,3%
O=C(O)c1cnccn1,H37Rv,,MIC,,480 µg/mL
Cc1c(N2C[C@@H](N)C3(CC3)C2)c(F)c(N)c2c(=O)c(C(=O)O)cn(C3CC3)c12,22 strains (rifampin- isoniazid-resistant),,MIC90,,25 µg/mL
CCOC(=O)Nc1cc(NC(c2ccccc2)c2ccccc2)c([N+](=O)[O-])c(NCC(=O)c2ccc(Cl)cc2)n1,H37Rv,,inhibition,12.5 µg/mL,0%
N=C(N)SCc1csc(N)n1,H37Rv,BACTEC,MIC bound,,>6.25 µg/mL
COc1ccc(C2Oc3ccc(Br)cc3C(=O)C2O)cc1,H37Rv,,EC50,,>12.5 µg/mL
CO[C@H](C(=O)[C@@H](O)[C@@H](C)O)[C@@H]1Cc2cc3cc(O[C@H]4C[C@@H](O[C@H]5C[C@@H](O)[C@H](O)[C@@H](C)O5)[C@@H](O)[C@@H](C)O4)c(C)c(O)c3c(O)c2C(=O)[C@H]1O[C@H]1C[C@@H](O[C@H]2C[C@@H](O[C@H]3C[C@](C)(O)[C@H](O)[C@@H](C)O3)[C@H](O)[C@@H](C)O2)[C@H](O)[C@@H](C)O1,H37Rv,BACTEC,inhibition,12.8 µg/mL,86%
COc1ccc(CCC2CCc3ccccc3N2C)cc1OC,MT10,,MIC,,>322 µg/mL
CCCCCCCCc1ccc2c(c1)C(=O)c1nc3c(OC)cccc3c(=O)n1-2,H37Rv,,MIC,,0.5 µg/mL
COc1ccc2c(c1)C(=O)/C(=C/c1ccc([N+](=O)[O-])o1)CO2,H37Rv,BACTEC,MIC,,≥12.5 µg/mL
CCCCCN1C(=O)c2ccnnc2Oc2ccc(C)cc21,H37Rv,BACTEC,inhibition,12.5 µg/mL,41%
COc1ccc(/C=C/C(=O)c2ccc(OC)cc2O)cc1,H37Rv,,inhibition,12.5 µg/mL,32%
CC1SC2(C(=O)N(CN3CCCCC3)c3ccccc32)N(c2ccccc2)C1=O,H37Rv,BACTEC,MIC,,≥12.8 µg/mL
CCOC(=O)Nc1cc(N=[N+]=[N-])c2n[nH]nc2n1,H37Rv,,inhibition,12.5 µg/mL,0%
CO/C(=N\N=C\c1ccc(Cl)cc1)c1ccncc1,6 PI,,MIC,,>20 µg/mL
C[C@@H]1CC[C@]2(C(=O)O)CC[C@]3(C)C(=CC[C@@H]4[C@@]5(C)C[C@@H](O)[C@H](O)[C@@](C)(CO)[C@@H]5CC[C@]43C)[C@@H]2[C@]1(C)O,H37Rv,,MIC,,>128 µM
CC(C)CNC(=S)NNC(=O)COc1cnccn1,H37Rv,,MIC,,51 µg/mL
CCCCCCCCCCCCNC(=S)SCCC(=O)O,H37Rv,BACTEC,MIC bound,,≤128 µg/mL
O=C1c2cc(Cl)nnc2Oc2ccccc2N1Cc1ccccc1,H37Rv,BACTEC,EC50,,>12.5 µg/mL
C/C(=N\NC(=O)c1ccncc1)c1ccccc1F,H37Rv,,MIC,,>20 µg/mL
C[C@]1(COc2ccc(N3CCC(Nc4cccc(Cl)c4)CC3)cc2)Cn2cc([N+](=O)[O-])nc2O1,H37Rv,,MIC,,0.024 µg/mL
CC(=O)Nc1ccc(/C=N/NC(N)=S)cc1,Isolate E (drug-resistant),,MIC,,20 µg/mL
COC(Cc1cc(C(O)(c2ccc(C(C)(C)C)cc2)c2cc(CC(OC)(c3cc(C(OC)(c4ccc(C(C)(C)C)cc4)c4ccc(C(C)(C)C)cc4)c(C)cc3C)c3cc(C(OC)(c4ccc(C(C)(C)C)cc4)c4ccc(C(C)(C)C)cc4)c(C)cc3C)c(C)cc2C)c(C)cc1C)(c1cc(C(OC)(c2ccc(C(C)(C)C)cc2)c2ccc(C(C)(C)C)cc2)c(C)cc1C)c1cc(C(OC)(c2ccc(C(C)(C)C)cc2)c2ccc(C(C)(C)C)cc2)c(C)cc1C,H37Rv,resazurin,inhibition,6.25 µg/mL,5%
CCCCn1c(-c2ccc(Cl)cc2Cl)cs/c1=N\NC(=O)COc1cnccn1,H37Rv,,MIC,,13 µg/mL
N#C/C(=C1C=C/C(=N\O)C=C/1Cl)c1ccccc1,H37Rv,BACTEC,MIC bound,,>12.5 µg/mL
CCC1Cn2cc([N+](=O)[O-])nc2O1,H37Rv-5A1 (PA-824-resistant),,MIC,,>100 µM
CC1COc2c(N3CCN(C)CC3)c(F)cc3c(=O)c(C(=O)O)cn1c23,001-013 (drug-resistant),,MBC,,4 µg/mL
CCOC(=O)Nc1cc2[nH]c(-c3ccccc3)nc2c(N(C)Cc2ccccc2)n1,H37Rv,,EC50,,<12.5 µg/mL
CC(=O)O[C@H]1OC(OC/C=C2\C=CC3N=C4C(=O)c5cc(Cl)ccc5N4C(=O)C3=C2)[C@H](OC(C)=O)[C@@H](OC(C)=O)[C@@H]1OC(C)=O,H37Rv,,MIC,,>8 µg/mL
NC(=O)c1cnccn1,Isolate 97-1069,,MIC,,900 µg/mL
COc1ccc(/C=C/C(=O)c2ccc([N+](=O)[O-])cc2)cc1,,,inhibition,12.5 µg/mL,62%
O=C(Nc1ccccc1)OCCN=C1c2ccccc2CCc2ccccc21,H37Rv,BACTEC,inhibition,12.5 µg/mL,0%
C[C@H]1CCC[C@]2(C)C[C@H]3OC(=O)C(O)(CO)[C@H]3C=C12,H37Rv,,MIC,,>128 µg/mL
COc1ccc(C2CC(=O)c3cc(C(=O)O)ccc3O2)cc1,,,inhibition,12.5 µg/mL,2%
CCCCn1c(-c2ccc(Cl)cc2)cs/c1=N\NC(=O)COc1cnccn1,H37Rv,,MIC,,13 µg/mL
NC(=O)Cn1c(=O)oc2cc(C(=O)CN3CCOCC3)ccc21,H37Rv,resazurin,inhibition,6.25 µg/mL,31%
C[C@]1(COc2ccc(-c3ccc(N4CCN(Cc5ccc(Cl)c(Cl)c5)CC4)cc3)cc2)Cn2cc([N+](=O)[O-])nc2O1,H37Rv,,MIC,,0.012 µg/mL
COc1cc2oc(=O)ccc2cc1C1OC(=O)C2OC21C,H37Rv,BACTEC,inhibition,12.5 µg/mL,14%
Cc1ccc2c(c1)Oc1nnc(Cl)cc1C(=O)N2CCCC1CCCCC1,H37Rv,BACTEC,EC50,,<12.5 µg/mL
Cc1c(N)c(=O)n(-c2ccccc2)n1C,H37Rv,BACTEC,MIC bound,,>12.8 µg/mL
CCCCCC1(C)Cn2cc([N+](=O)[O-])nc2O1,H37Rv-5A2 (PA-824-resistant),,MIC,,>100 µM
COc1ccc2c(c1)[n+]([O-])c(/C(C)=N/NC(=O)CC#N)c[n+]2[O-],H37Rv,BACTEC,inhibition,12.5 µg/mL,90%
CO[C@H]1/C=C/O[C@@]2(C)Oc3c(C)c(O)c4c(O)c(c(/C=N/N5CCN(C)CC5)c(O)c4c3C2=O)NC(=O)/C(C)=C\C=C\[C@H](C)[C@H](O)[C@@H](C)[C@@H](O)[C@@H](C)[C@H](OC(C)=O)[C@@H]1C,H37Rv,,MIC,,0.16 µg/mL
CC(=O)Nc1ccc(S(=O)(=O)CC(=O)CS(=O)(=O)c2ccc(NC(C)=O)cc2)cc1,H37Rv,resazurin,inhibition,6.25 µg/mL,13%
NNC(=O)c1ccncc1,22 strains (rifampin- isoniazid-resistant),,MIC90,,>100 µg/mL
CC(C)(C)C1=CC(=O)C(C(C)(C)C)=CC1=O,H37Rv,BACTEC,MIC,,128 µg/mL
CCOC(=O)Nc1cc(NC(C)C(=O)COc2ccccc2)c([N+](=O)[O-])c(N)n1,H37Rv,,EC50,,>12.5 µg/mL

Repeating the final 6 entries:

SMILES	strain	method	measure	tested at	result
COc1ccc2c(c1)[n+]([O-])c(/C(C)=N/NC(=O)CC#N)c[n+]2[O-]	H37Rv	BACTEC	inhibition	12.5 µg/mL	90%
CO[C@H]1/C=C/O[C@@]2(C)Oc3c(C)c(O)c4c(O)c(c(/C=N/N5CCN(C)CC5)c(O)c4c3C2=O)NC(=O)/C(C)=C\C=C\[C@H](C)[C@H](O)[C@@H](C)[C@@H](O)[C@@H](C)[C@H](OC(C)=O)[C@@H]1C	H37Rv		MIC		0.16 µg/mL
CC(=O)Nc1ccc(S(=O)(=O)CC(=O)CS(=O)(=O)c2ccc(NC(C)=O)cc2)cc1	H37Rv	resazurin	inhibition	6.25 µg/mL	13%
NNC(=O)c1ccncc1	22 strains (rifampin- isoniazid-resistant)		MIC90		>100 µg/mL
CC(C)(C)C1=CC(=O)C(C(C)(C)C)=CC1=O	H37Rv	BACTEC	MIC		128 µg/mL
CCOC(=O)Nc1cc(NC(C)C(=O)COc2ccccc2)c([N+](=O)[O-])c(N)n1	H37Rv		EC50		>12.5 µg/mL

Conditions beyond the fields shown may differ between rows. Inhibition is in % at the dose shown (toxicity tests: loss of growth or viability). ECn: concentration that inhibits the pathogen or its effect by n%. MIC bound comes from a single tested concentration. Blank or dashed fields: not listed here.